Data source: PubChem BioAssay AID1259414 (Drosophila RNAi Screening Center, 2018)
In all, the deposit lists about 24,000 reagents; this is an unselected part of those with a known target gene and a result. In the full data, about 1,210 (5%) are marked active. 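Inactive calls also include excluded dsRNAs with several or no targets, genes unexpressed in JW18, and well A1, regardless of score.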 Reagents against one gene are numbered here. A plus sign joins genes that one reagent is predicted to hit.

Aim: 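Fly genes that alter Wolbachia amount inside host cells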 (primary screen)
Cell system: Drosophila JW18 cells infected with Wolbachia
Reagents: long dsRNA against Drosophila genes, 0.25 µg dsRNA per well of a 384-well plate
Duration: 5 days
Challenge: cells persistently infected with Wolbachia before knock-down; no added drug
Measured: 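Imaged fluorescence in situ signal for Wolbachia 23S rRNA per DAPI-counted host cell, given as a robust z-score within each plate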
Scale: Wolbachia per cell robust z: higher = more Wolbachia per host cell than the plate typical
Call rule: 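Hit when robust z is 1.5 or more, or -1.5 or less, in at least two of three replicates; excludes dsRNAs with several or no targets, genes not expressed in JW18 and well A1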

For CG33263 (GeneID 2768952), what was measured?
Wolbachia per cell robust z, rep 1: 0.668; Wolbachia per cell robust z, rep 2: -1.06; Wolbachia per cell robust z, rep 3: 0.462; Outcome: inactive

What did the screen give for Tap42 (GeneID 326166) #1?
Wolbachia per cell robust z, rep 1: 0.636; Wolbachia per cell robust z, rep 2: -0.0645; Wolbachia per cell robust z, rep 3: 0.36; Outcome: inactive

For Tap42 (GeneID 326166) #2, what does the deposit list?
Wolbachia per cell robust z, rep 1: 0.174; Wolbachia per cell robust z, rep 2: 0.559; Wolbachia per cell robust z, rep 3: 0.451; Outcome: inactive

With CG9231 (GeneID 40130), what was measured?
Wolbachia per cell robust z, rep 1: -0.0642; Wolbachia per cell robust z, rep 2: -2.75; Wolbachia per cell robust z, rep 3: -0.861; Outcome: inactive

How did the screen score CG10116 (GeneID 39515)?
Wolbachia per cell robust z, rep 1: 0.108; Wolbachia per cell robust z, rep 2: -1.47; Wolbachia per cell robust z, rep 3: 0.446; Outcome: inactive

With Ir87a (GeneID 41654) #1, what was measured?
Wolbachia per cell robust z, rep 1: -0.825; Wolbachia per cell robust z, rep 2: -5.87; Wolbachia per cell robust z, rep 3: -1.91; Outcome: inactive

With Ir87a (GeneID 41654) #2, what was measured?
Wolbachia per cell robust z, rep 1: -0.825; Wolbachia per cell robust z, rep 2: -1.85; Wolbachia per cell robust z, rep 3: -0.791; Outcome: inactive

How did the screen score Rpn2 (GeneID 43449)?
Wolbachia per cell robust z, rep 1: 2.7; Wolbachia per cell robust z, rep 2: 0.38; Wolbachia per cell robust z, rep 3: 2.91; Outcome: active

How did the screen score CG7408 (GeneID 39991)?
Wolbachia per cell robust z, rep 1: 0.676; Wolbachia per cell robust z, rep 2: 0.419; Wolbachia per cell robust z, rep 3: 1.64; Outcome: inactive

What is on record for cDIP (GeneID 42512)?
Wolbachia per cell robust z, rep 1: -2.61; Wolbachia per cell robust z, rep 2: 0.229; Wolbachia per cell robust z, rep 3: -1.37; Outcome: inactive

With Pus1 (GeneID 42440) #1, how do the results read?
Wolbachia per cell robust z, rep 1: -1.62; Wolbachia per cell robust z, rep 2: -0.282; Wolbachia per cell robust z, rep 3: -4.6; Outcome: active

How did the screen score Pus1 (GeneID 42440) #2?
Wolbachia per cell robust z, rep 1: 0.0329; Wolbachia per cell robust z, rep 2: 0.394; Wolbachia per cell robust z, rep 3: 0.769; Outcome: inactive

What is on record for GatC + PolG2?
Wolbachia per cell robust z, rep 1: 1.46; Wolbachia per cell robust z, rep 2: -0.76; Wolbachia per cell robust z, rep 3: 0.034; Outcome: inactive

Which result is listed for TM9SF4 (GeneID 34778)?
Wolbachia per cell robust z, rep 1: -0.475; Wolbachia per cell robust z, rep 2: 0.0413; Wolbachia per cell robust z, rep 3: 0.763; Outcome: inactive

What did the screen give for mam (GeneID 36555) #1?
Wolbachia per cell robust z, rep 1: -0.599; Wolbachia per cell robust z, rep 2: -0.246; Wolbachia per cell robust z, rep 3: -0.416; Outcome: inactive

How did the screen score mam (GeneID 36555) #2?
Wolbachia per cell robust z, rep 1: 0.403; Wolbachia per cell robust z, rep 2: 0.634; Wolbachia per cell robust z, rep 3: 1.29; Outcome: inactive

Which result is listed for mam (GeneID 36555) #3?
Wolbachia per cell robust z, rep 1: -3.33; Wolbachia per cell robust z, rep 2: 0.359; Wolbachia per cell robust z, rep 3: 0.25; Outcome: inactive

For Gr92a (GeneID 117473), what was measured?
Wolbachia per cell robust z, rep 1: 0.258; Wolbachia per cell robust z, rep 2: -0.725; Wolbachia per cell robust z, rep 3: -0.808; Outcome: inactive

What is on record for Vps20 (GeneID 37581)?
Wolbachia per cell robust z, rep 1: -1.29; Wolbachia per cell robust z, rep 2: 0.739; Wolbachia per cell robust z, rep 3: 0.783; Outcome: inactive

For EcR (GeneID 35540) #1, what was measured?
Wolbachia per cell robust z, rep 1: 1.32; Wolbachia per cell robust z, rep 2: 1.12; Wolbachia per cell robust z, rep 3: 0.598; Outcome: inactive

Which result is listed for EcR (GeneID 35540) #2?
Wolbachia per cell robust z, rep 1: -0.626; Wolbachia per cell robust z, rep 2: 1.44; Wolbachia per cell robust z, rep 3: 0.423; Outcome: inactive

Which result is listed for EcR (GeneID 35540) #3?
Wolbachia per cell robust z, rep 1: -4.31; Wolbachia per cell robust z, rep 2: 0.612; Wolbachia per cell robust z, rep 3: -1.55; Outcome: active

For CG14624 (GeneID 31068) #1, what does the deposit list?
Wolbachia per cell robust z, rep 1: 1.31; Wolbachia per cell robust z, rep 2: 0.942; Wolbachia per cell robust z, rep 3: 0.433; Outcome: inactive

How did the screen score CG14624 (GeneID 31068) #2?
Wolbachia per cell robust z, rep 1: 0.17; Wolbachia per cell robust z, rep 2: -0.582; Wolbachia per cell robust z, rep 3: 0.113; Outcome: inactive
